Laboratory results published in patent US5585367A (priority 1990, dated 1996).

System: Supt-1 cells
Assay: Toxicity against sound cells, cellular mortality by exclusion with trypan blue
Details: dilutions 1/500, 1/1500 and 1/3000

Structure (SMILES): N=C(N)N=NC(=N)N
- cellular viability of Supt-1 cells: does not decrease the cellular viability
